{"source": "paper PMC8765435", "about": "“In Vitro Antimalarial Activity of Inhibitors of the Human GTPase Rac1” (Antimicrobial Agents and Chemotherapy, 2022)", "key": {"[1]": {"system": "P. falciparum asexual parasites, chloroquine-sensitive D10 strain", "experiment": "Drug susceptibility assay (pLDH), asexual parasites, D10 strain", "details": "read-out: Mean IC50 ± SD, D10, CQ-sensitive D10 strain, 72 h"}, "[2]": {"system": "P. falciparum asexual parasites, chloroquine-resistant W2 strain", "experiment": "Drug susceptibility assay (pLDH), asexual parasites, W2 strain", "details": "read-out: Mean IC50 ± SD, W2, CQ-resistant W2 strain, 72 h"}}}
{"smiles": "O=C(Nc1ccc(S(=O)(=O)N2CCCCC2)cc1)c1cc(-c2ccccc2O)n[nH]1", "values": [{"measurement": "IC50", "setting": "[1]", "result": 7.14, "unit": "µM"}, {"measurement": "IC50", "setting": "[2]", "result": 25.4, "unit": "µM"}]}
